Experimental data: PubChem BioAssay AID504761 (Drosophila RNAi Screening Center, 2011)

- Test: 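Insect host genes that dengue virus relies on to spread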 (primary screen)
- System: D.Mel-2 cells from Drosophila
- Reagents: long dsRNA against Drosophila genes
- Conditions: infection with dengue virus type 2; dose and infection time not stated
- Measurement: 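Cells stained for dengue envelope protein and imaged; percent of infected cells per well on duplicate plates, ranked by infection, with stained nuclei counted for cell number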
- Direction: infection score: higher = more virus-infected cells
- Active means: 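Very low infection ranking in both replicate wells (chance probability at most 0.065), then a retest showing infection dropped 1.5-fold or more at p below 0.05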
- Meaning of the calls: active = confirmed: knock-down lowers infection; inactive = not picked or not confirmed
In all, the deposit lists about 22,000 reagents; shown is an unselected part of those that have a named target and a result. In the full data, 116 (0.52%) are marked active. 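Calls depend on retest data that are not deposited; infection was ranked per plate without normalising between plates; the unit of the infection score is not given.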 A number with no mark means an inactive call. Further read-outs or replicates are left out here. The record does not give: the amount of reagent, the time to read-out.

With TfIIA-S-2 [DRSC17791], what was measured?
infection score, replicate 1: 2.14

With Gasz [DRSC06829], what does the deposit list?
infection score, replicate 1: 10.8

Which result is listed for Gasz [DRSC27833]?
infection score, replicate 1: 8.75

How did the screen score cert (ceramide transfer protein) [DRSC09674]?
infection score, replicate 1: 12.4

What did the screen give for pst (pastrel) [DRSC11003]?
infection score, replicate 1: 7.52

What is on record for kn (knot) [DRSC06196]?
infection score, replicate 1: 12.2

For kn (knot) [DRSC07637], what was measured?
infection score, replicate 1: 22.7

What is on record for kn (knot) [DRSC21533]?
infection score, replicate 1: 1.34

What did the screen give for kn (knot) [DRSC23818]?
infection score, replicate 1: 2.53

For CG8326 [DRSC20103], what does the deposit list?
infection score, replicate 1: 1.39

How did the screen score CG8326 [DRSC28368]?
infection score, replicate 1: 29.1

What did the screen give for Nlg3 (Neuroligin 3) [DRSC12524]?
infection score, replicate 1: 5.07

For Nlg3 (Neuroligin 3) [DRSC12540], what does the deposit list?
infection score, replicate 1: 6.57

What did the screen give for Nlg3 (Neuroligin 3) [DRSC12574]?
infection score, replicate 1: 5.93

What did the screen give for Nlg3 (Neuroligin 3) [DRSC25678]?
infection score, replicate 1: 12.5

In a second layout: results already given.
Gene,DRSC id,"infection score, replicate 1"
kn (knot),DRSC06196,12.2
kn (knot),DRSC07637,22.7
